PubChem BioAssay AID624099 – ICCB-Longwood – 2012
Here is an unselected part of about 21,000 reagents tested. 497 of all reagents (2.4%) count as active. 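Higher z means weaker E2 silencing; only reporter increases were scored, and knock-downs that hurt cell survival may mask genuine repressor factors.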 Entries without a mark were called inactive.

Assay: 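Human genes that papillomavirus E2 requires to repress the HPV18 LCR promoter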 (primary screen)
System: human C33A cervical carcinoma cells (HPV-negative) stably expressing BPV1 E2 and an HPV18 LCR luciferase reporter
Knock-down reagent: siRNA pool against human genes, 40 nM
Time to read-out: 72 h
Measurement: 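Per-well luciferase luminescence, z-scored on each plate against the plate mean and SD with control wells left out, then averaged across three replicate plates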
Reading the numbers: mean z-score and z-score: higher = stronger reporter signal, weaker E2 silencing
Rule for the call: 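Mean z ≥ 2 together with z ≥ 2 in two or more of the three replicates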

| target gene | mean z-score | z-score, replicate A | z-score, replicate B | z-score, replicate C |
| --- | --- | --- | --- | --- |
| UGT1A8 (UDP glucuronosyltransferase family 1 member A8) | 1.59 | 1.36 | 1.86 | 1.56 |
| ZNF300 (zinc finger protein 300) | 0.33 | 0.37 | 0.67 | -0.06 |
| CCDC163 (CCDC163 homolog) | -0.66 | -0.72 | -0.77 | -0.48 |
| NHEJ1 (non-homologous end joining factor 1) | -0.66 | -0.67 | -0.84 | -0.47 |
| TRIM77 (tripartite motif containing 77) | -0.81 | -0.77 | -1.01 | -0.65 |
| UBQLN2 (ubiquilin 2) | 0.97 | 1.29 | 0.91 | 0.72 |
| KLK1 (kallikrein 1) | -0.4 | -0.44 | -0.63 | -0.12 |
| COMTD1 (catechol-O-methyltransferase domain containing 1) | 0.74 | 0.96 | 0.67 | 0.58 |
| USP25 (ubiquitin specific peptidase 25) | -1.24 | -1.22 | -1.14 | -1.34 |
| AQP9 (aquaporin 9) | -0.33 | -0.15 | -0.38 | -0.46 |
| NDUFB9 (NADH:ubiquinone oxidoreductase subunit B9) | -1.05 | -0.98 | -1.06 | -1.12 |
| FAM90A1 (family with sequence similarity 90 member A1) | 0.66 | 0.54 | 0.3 | 1.15 |
| REELD1 (reeler domain containing 1) | 0.73 | 0.73 | 0.76 | 0.69 |
| BACH1 (BTB domain and CNC homolog 1) | -0.01 | -0.37 | 0.04 | 0.31 |
| IGSF3 (immunoglobulin superfamily member 3) | 0.61 | 0.88 | 0.65 | 0.29 |
| LOC389405 (retired record) | -0.82 | -0.75 | -1.06 | -0.65 |
| ADGRE3 (adhesion G protein-coupled receptor E3) | -0.5 | -0.46 | -0.5 | -0.53 |
| SPATA33 (spermatogenesis associated 33) | -1.23 | -1.02 | -1.33 | -1.34 |
| LRP5 (LDL receptor related protein 5) | -0.97 | -0.82 | -1.02 | -1.06 |
| PKMYT1 (protein kinase, membrane associated tyrosine/threonine 1) | -2.02 | -2.25 | -1.66 | -2.16 |
| CLPTM1L (CLPTM1 like) | 0.97 | 0.7 | 1.07 | 1.13 |
| CNOT12 (CCR4-NOT transcription complex subunit 12) | -0.21 | 0 | -0.56 | -0.08 |
| SH2D3A (SH2 domain containing 3A) | 0.41 | 0.47 | 0.5 | 0.26 |
| MYLK2 (myosin light chain kinase 2) | -0.78 | -0.83 | -0.65 | -0.86 |
| ZNF35 (zinc finger protein 35) | -1.06 | -0.88 | -1.28 | -1.02 |
| HNF4G (hepatocyte nuclear factor 4 gamma) | -0.24 | -0.17 | -0.37 | -0.19 |
| PRKAB1 (protein kinase AMP-activated non-catalytic subunit beta 1) | -0.54 | -0.68 | -0.3 | -0.63 |
| STARD3 (StAR related lipid transfer domain containing 3) | 1.39 | 1.29 | 1.11 | 1.78 |
| PSMG1 (proteasome assembly chaperone 1) | -0.12 | -0.33 | -0.16 | 0.14 |
| LINC00207 (long independently transcribed non-coding RNA 207) | 0.16 | 0.15 | 0.01 | 0.32 |
| ATP5MGL (ATP synthase membrane subunit g like) | -0.12 | 0.04 | 0.06 | -0.47 |
| KIF18B (kinesin family member 18B) | -0.27 | -0.14 | 0.09 | -0.75 |
| LOC388453 (retired record) | -0.37 | -0.24 | -0.39 | -0.5 |
| SURF2 (surfeit 2) | -0.2 | -0.09 | -0.18 | -0.32 |
| BAALC (BAALC binder of MAP3K1 and KLF4) | 0.32 | 0.57 | 0.49 | -0.09 |
| SEPTIN5 (septin 5) | -0.87 | -0.95 | -0.87 | -0.79 |
| SPRR2B (small proline rich protein 2B) | 0.09 | 0.17 | 0.26 | -0.16 |
| PHYHIP (phytanoyl-CoA 2-hydroxylase interacting protein) | -0.65 | -0.53 | -0.77 | -0.66 |
| ATP23 | -0.68 | -0.74 | -0.73 | -0.56 |

Reformatted: entries from further up.
target gene	mean z-score	z-score, replicate A	z-score, replicate B	z-score, replicate C
ZNF35 (zinc finger protein 35)	-1.06	-0.88	-1.28	-1.02
HNF4G (hepatocyte nuclear factor 4 gamma)	-0.24	-0.17	-0.37	-0.19
PRKAB1 (protein kinase AMP-activated non-catalytic subunit beta 1)	-0.54	-0.68	-0.3	-0.63
STARD3 (StAR related lipid transfer domain containing 3)	1.39	1.29	1.11	1.78
PSMG1 (proteasome assembly chaperone 1)	-0.12	-0.33	-0.16	0.14
LINC00207 (long independently transcribed non-coding RNA 207)	0.16	0.15	0.01	0.32
ATP5MGL (ATP synthase membrane subunit g like)	-0.12	0.04	0.06	-0.47
